In experiment [1] the test system is HIV-1HXB2 Env-mediated cell-cell fusion. The class given is cell-based. Conditions: TZM-bl target, HL2/3 effector, 6 h coculture at 37 C, luciferase; triplicate, repeated three times, mean ± SD; SD; read-out: IC50, inhibition of HIV-1HXB2 Env-mediated cell-cell fusion.
The target in experiment [2] is N36 (gp41 NHR-derived target mimic peptide) (Human immunodeficiency virus type 1 group M subtype B, UniProt P04578). As to the kind of experiment: CD spectroscopy of inhibitor complexed with N36. It counts as binding, HIV-1. Conditions: thermal denaturation of complex at 222 nm, 20-98 C, 2 C/min, each peptide 10 μM in PBS; repeated two times, representative data.

A word on the IC50: it is the concentration needed to halve the response being measured.

Consider `CC[C@H](C)[C@H](NC(=O)[C@H](CCC(N)=O)NC(=O)[C@H](CCC(N)=O)NC(=O)[C@H](CC(N)=O)NC(=O)[C@H](CCC(N)=O)NC(=O)[C@H](CO)NC(=O)[C@H](CCCCN)NC(=O)[C@H](CCCCN)NC(=O)[C@@H](NC(=O)[C@H](CC(C)C)NC(=O)[C@H](CCC(=O)O)NC(=O)[C@H](CCC(=O)O)NC(=O)[C@@H](NC(=O)[C@H](CCCCN)NC(=O)[C@H](CCCCN)NC(=O)[C@@H](NC(=O)[C@H](Cc1ccc(O)cc1)NC(=O)[C@H](CCC(=O)O)NC(=O)[C@H](CCC(=O)O)NC(=O)[C@@H](NC(=O)[C@H](CCCCN)NC(=O)[C@H](CCCNC(=N)N)NC(=O)[C@H](CC(=O)O)NC(=O)[C@H](Cc1c[nH]c2ccccc12)NC(=O)[C@H](CCC(=O)O)NC(=O)[C@H](CCC(=O)O)NC(=O)[C@H](Cc1c[nH]c2ccccc12)NC(C)=O)[C@@H](C)CC)[C@@H](C)O)[C@@H](C)CC)[C@@H](C)CC)C(=O)N[C@@H](CC(=O)O)C(=O)N[C@@H](CC(C)C)C(N)=O` [WQ-IDL, reference compound], for which the IC50 in experiment [1] stood at 1.1 ± 0.1 nM. Also, the “CD data (with N36) Tm (°C)” value in experiment [2] stood at 63.8 °C.

`CC[C@H](C)[C@H](NC(=O)[C@H](CC(C)C)NC(=O)[C@H](CCC(=O)O)NC(=O)[C@H](CCC(=O)O)NC(=O)[C@@H](NC(=O)[C@H](CCCCN)NC(=O)[C@H](CCCCN)NC(=O)[C@@H](NC(=O)[C@H](Cc1ccc(O)cc1)NC(=O)[C@H](CCC(=O)O)NC(=O)[C@H](CCC(=O)O)NC(=O)[C@@H](NC(=O)[C@H](CCCCN)NC(=O)[C@H](CCCCN)NC(=O)[C@H](CC(=O)O)NC(=O)[C@H](Cc1c[nH]c2ccccc12)NC(=O)[C@H](CCC(=O)O)NC(=O)[C@H](CCC(=O)O)NC(=O)[C@H](Cc1c[nH]c2ccccc12)NC(C)=O)[C@@H](C)CC)[C@@H](C)O)[C@@H](C)CC)C(=O)N[C@@H](CCCCN)C(=O)N[C@@H](CCCCN)C(=O)N[C@@H](CO)C(N)=O` [SC22EK]: in experiment [1], the IC50 was determined as 98.6 ± 7.2 nM. The “CD data (with N36) Tm (°C)” value in experiment [2] amounted to 59.5 °C.

With `CC[C@H](C)[C@H](NC(=O)[C@H](CC(C)C)NC(=O)[C@H](CCC(=O)O)NC(=O)[C@H](CCC(=O)O)NC(=O)[C@@H](NC(=O)[C@H](CCCCN)NC(=O)[C@H](CCCCN)NC(=O)[C@@H](NC(=O)[C@H](Cc1ccc(O)cc1)NC(=O)[C@H](CCC(=O)O)NC(=O)[C@H](CCC(=O)O)NC(=O)[C@@H](NC(=O)[C@H](CCCCN)NC(=O)[C@H](CCCCN)NC(=O)[C@H](CC(=O)O)NC(=O)[C@H](Cc1c[nH]c2ccccc12)NC(=O)[C@H](CCC(=O)O)NC(=O)[C@H](CCC(=O)O)NC(=O)[C@H](Cc1c[nH]c2ccccc12)NC(=O)[C@@H](NC(=O)[C@H](CCSC)NC(C)=O)[C@@H](C)O)[C@@H](C)CC)[C@@H](C)O)[C@@H](C)CC)C(=O)N[C@@H](CCCCN)C(N)=O` [MT-SC20EK], the IC50 in experiment [1] was 3.3 ± 1.4 nM. For the same compound, in experiment [2], the “CD data (with N36) Tm (°C)” value amounted to 70.4 °C.

As for `CC[C@H](C)[C@H](NC(=O)[C@H](CC(C)C)NC(=O)[C@H](CCC(=O)O)NC(=O)[C@H](CCC(=O)O)NC(=O)[C@@H](NC(=O)[C@H](CCCCN)NC(=O)[C@H](CCCCN)NC(=O)[C@@H](NC(=O)[C@H](Cc1ccc(O)cc1)NC(=O)[C@H](CCC(=O)O)NC(=O)[C@H](CCC(=O)O)NC(=O)[C@@H](NC(=O)[C@H](CCCCN)NC(=O)[C@H](CCCNC(=N)N)NC(=O)[C@H](CC(=O)O)NC(=O)[C@H](Cc1c[nH]c2ccccc12)NC(=O)[C@H](CCC(=O)O)NC(=O)[C@H](CCC(=O)O)NC(=O)[C@H](Cc1c[nH]c2ccccc12)NC(C)=O)[C@@H](C)CC)[C@@H](C)O)[C@@H](C)CC)C(=O)N[C@@H](CCCCN)C(=O)N[C@@H](CCCCN)C(=O)N[C@@H](CO)C(=O)N[C@@H](CCC(N)=O)C(=O)N[C@@H](CC(N)=O)C(=O)N[C@@H](CCC(N)=O)C(=O)N[C@@H](CCC(N)=O)C(=O)N[C@@H](CCC(=O)O)C(=O)N[C@@H](CCCCN)C(=O)N[C@@H](CC(N)=O)C(N)=O` [WQ-EKN], the IC50 in experiment [1] amounted to 1.2 ± 0.1 nM. The “CD data (with N36) Tm (°C)” value in experiment [2] came to 64.3 °C.

`CC[C@H](C)[C@H](NC(=O)[C@H](CC(C)C)NC(=O)[C@H](CCC(=O)O)NC(=O)[C@H](CCC(=O)O)NC(=O)[C@@H](NC(=O)[C@H](CCCCN)NC(=O)[C@H](CCCCN)NC(=O)[C@@H](NC(=O)[C@H](Cc1ccc(O)cc1)NC(=O)[C@H](CCC(=O)O)NC(=O)[C@H](CCC(=O)O)NC(=O)[C@@H](NC(=O)[C@H](CCCCN)NC(=O)[C@H](CCCCN)NC(=O)[C@H](CC(=O)O)NC(=O)[C@H](Cc1c[nH]c2ccccc12)NC(=O)[C@H](CCC(=O)O)NC(=O)[C@H](CCC(=O)O)NC(=O)[C@H](Cc1c[nH]c2ccccc12)NC(C)=O)[C@@H](C)CC)[C@@H](C)O)[C@@H](C)CC)C(=O)N[C@@H](CCCCN)C(=O)N[C@@H](CCCCN)C(=O)N[C@@H](CO)C(=O)N[C@@H](CCC(=O)O)C(N)=O` [SC23EK]: in experiment [1], the IC50 was determined as 94.2 ± 12.3 nM. Also, the “CD data (with N36) Tm (°C)” value in experiment [2] was 57.9 °C.

As for `CC[C@H](C)[C@H](NC(=O)[C@H](CC(C)C)NC(=O)[C@H](CCC(=O)O)NC(=O)[C@H](CCC(=O)O)NC(=O)[C@@H](NC(=O)[C@H](CCCCN)NC(=O)[C@H](CCCCN)NC(=O)[C@@H](NC(=O)[C@H](Cc1ccc(O)cc1)NC(=O)[C@H](CCC(=O)O)NC(=O)[C@H](CCC(=O)O)NC(=O)[C@@H](NC(=O)[C@H](CCCCN)NC(=O)[C@H](CCCCN)NC(=O)[C@H](CC(=O)O)NC(=O)[C@H](Cc1c[nH]c2ccccc12)NC(=O)[C@H](CCC(=O)O)NC(=O)[C@H](CCC(=O)O)NC(=O)[C@H](Cc1c[nH]c2ccccc12)NC(=O)[C@@H](NC(=O)[C@H](CCSC)NC(C)=O)[C@@H](C)O)[C@@H](C)CC)[C@@H](C)O)[C@@H](C)CC)C(=O)N[C@@H](CCCCN)C(=O)N[C@@H](CCCCN)C(=O)N[C@@H](CO)C(=O)N[C@@H](CCC(=O)O)C(=O)N[C@@H](CCC(=O)O)C(=O)N[C@@H](CCC(N)=O)C(=O)N[C@@H](CCC(N)=O)C(=O)N[C@@H](CCCCN)C(=O)N[C@@H](CCCCN)C(=O)N[C@@H](CC(N)=O)C(=O)N[C@@H](CCC(=O)O)C(=O)N[C@@H](CCCCN)C(N)=O` [MT-SC31EK], the IC50 in experiment [1] was found to be 0.9 ± 0.4 nM. Moreover, the “CD data (with N36) Tm (°C)” value in experiment [2] is 76.7 °C.

For the compound `CC[C@H](C)[C@H](NC(=O)[C@H](CC(C)C)NC(=O)[C@H](CCC(=O)O)NC(=O)[C@H](CCC(=O)O)NC(=O)[C@@H](NC(=O)[C@H](CCCCN)NC(=O)[C@H](CCCCN)NC(=O)[C@@H](NC(=O)[C@H](Cc1ccc(O)cc1)NC(=O)[C@H](CCC(=O)O)NC(=O)[C@H](CCC(=O)O)NC(=O)[C@@H](NC(=O)[C@H](CCCCN)NC(=O)[C@H](CCCCN)NC(=O)[C@H](CC(=O)O)NC(=O)[C@H](Cc1c[nH]c2ccccc12)NC(=O)[C@H](CCC(=O)O)NC(=O)[C@H](CCC(=O)O)NC(=O)[C@H](Cc1c[nH]c2ccccc12)NC(=O)[C@@H](NC(=O)[C@H](CCSC)NC(C)=O)[C@@H](C)O)[C@@H](C)CC)[C@@H](C)O)[C@@H](C)CC)C(=O)N[C@@H](CCCCN)C(=O)N[C@@H](CCCCN)C(=O)N[C@@H](CO)C(=O)N[C@@H](CCC(=O)O)C(=O)N[C@@H](CCC(=O)O)C(N)=O` [MT-SC24EK], in experiment [1], the IC50 came out at 2.3 ± 0.5 nM. For the same compound, in experiment [2], the “CD data (with N36) Tm (°C)” value was determined as 69.5 °C.

Source of the values: PMC6669600 (Viruses, 2019).
